Test results taken from patent US10611742B2, “4-oxo-4,5-dihydrothiazole derivative, preparation method and use thereof” (Institute of Pharmacology and Toxicology Academy of …, priority 2015, dated 2020).

Assays:
Assay type in all cases: cell-based
Design in all cases: key: “—” represents that a sample has no anti-viral activity at a maximal nontoxic dose
[1] = tested on: enterovirus EV71 (SZ-98 strain); assay: anti-EV71 activity, preventive effect on Vero cell (CPE inhibition); details: SI = TC50/IC50
Protocol: (§1) Test principle: Vero cell, MRC-5 cell, and RD cell were used as host of virus, respectively, and samples were tested for their inhibition of cytopathic effect (CPE) caused by virus.
(§2) 1. Virus strain: enterovirus EV71 (SZ-98 strain, provided by Chinese Center for Disease Control and Prevention), Vero cell (provided by the Cell Bank of Chinese Academy of Sciences), MRC-5 cell (provided by the Cell Bank of Chinese Academy of Sciences), and RD cell (provided by the Cell Bank of Chinese Academy of Sciences), were subjected to passage culture, respectively, and stored at −80° C.
(§3) 2. Sample treatment: a test sample (Compounds 1-14 and positive control agent) was dissolved in dimethyl sulfoxide (DMSO) to prepare a stock solution, which was stored at −20° C. The stock solution was diluted with DMEM medium (Gibco Company) containing 2% fetal bovine serum (Gibco Company) to prepare a 100 μM solution before use, and was 3-fold diluted with the medium to obtain 8 diluted concentrates.
(§4) 3. Positive control agent: Con1 (pitstop2) (purchased from AmyJet Scientific Inc., Abcam), a broad-spectrum antiviral inhibitor.
(§5) 4. Test method: • 4.1 Therapeutic effect: the cells were seeded on a 96-well culture plate, and cultured in a 5% CO2, 37° C. incubator for 24 h. About 100 TCID50 enterovirus EV71 was added to each well. After adsorption at 37° C. for 1 h, the virus solution was discarded, and a drug was added at different diluted concentrates, respectively. Meanwhile, virus control and cell control were set, and cultured at 37° C. […] The virus-inhibition rate of a sample at each concentration was calculated based on the chemiluminescent value, the sample concentration was used as abscissa, and the inhibition rate was used as ordinate, and S-Curve fitting was performed by using Origin software. Half maximal inhibitory concentration (IC50) of each sample for enterovirus EV71 was calculated based on the fitting results. Median toxic concentration (TC50) was determined by the same method. […] To each well, a drug was added at a different diluted concentration, then the cells were cultured at 37° C. for 2 h, and then the drug was discarded. About 100 TCID50 enterovirus EV71 was added to each well, adsorbed at 37° C. for 1.5 h, then the virus solution was discarded, and a maintenance medium free of drug was added. Meanwhile, virus control and cell control were set, and cultured at 37° C. […] The virus-inhibition rate of a sample at each concentration was calculated, and half maximal inhibitory concentration (IC50), median toxic concentration (TC50), and selection index (SI) of each sample for enterovirus EV71 were calculated. The methods for determining and calculating them were as described in Item 4.1

[2] = tested on: enterovirus EV71 (SZ-98 strain); assay: anti-EV71 activity, therapeutic effect on Vero cell (CPE inhibition, Celltiter Glo); details: SI = TC50/IC50
Protocol: as §1, §2, §3, §4, §5

[3] = tested on: enterovirus EV71 (SZ-98 strain); assay: anti-EV71 activity, preventive effect on RD cell (CPE inhibition); details: SI = TC50/IC50
Protocol: as §1, §2, §3, §4, §5

[4] = tested on: enterovirus EV71 (SZ-98 strain); assay: anti-EV71 activity, therapeutic effect on MRC-5 cell (CPE inhibition, Celltiter Glo); details: SI = TC50/IC50
Protocol: as §1, §2, §3, §4, §5

[5] = tested on: enterovirus EV71 (SZ-98 strain); assay: anti-EV71 activity, therapeutic effect on RD cell (CPE inhibition, Celltiter Glo)
Protocol: as §1, §2, §3, §4, §5

Structure (SMILES)	SI [1]	SI [2]	SI [3]	SI [4]	SI ([5]; SI = TC50/IC50)	SI ([5]; ratio CC50 / IC50)
O=C1N=C(NS(=O)(=O)c2cccc3ccccc23)S/C1=C\c1ccc(Cl)cc1Cl [Compound 1, Naphthalene-1-sulfonic acid [5-(2,4-dichloro-benzylidene)-4-oxo-4,5-dihydro-thiazol-2-yl] amide]	—	1.44	—	—	—	
COc1cc(/C=C2\SC(NS(=O)(=O)c3cccc4ccccc34)=NC2=O)ccc1O [Compound 2, Naphthalene-1-sulfonic acid [5-(3-methoxy-4-hydroxy-benzylidene)-4-oxo-4,5-dihydro-thiazol-2-yl] amide]	—	—	—	—	—	
CCN(CC)c1ccc(/C=C2\SC(NS(=O)(=O)c3cccc4ccccc34)=NC2=O)c(O)c1 [Compound 3, Naphthalene-1-sulfonic acid [5-(2-hydroxy-4-diethylamino-benzylidene)-4-oxo-4,5-dihydro-thiazol-2-yl] amide]	—	2.50	—	—	1.7	1.7
O=C1N=C(NS(=O)(=O)c2cccc3ccccc23)S/C1=C\c1ccc(Cl)cc1 [Compound 4, Naphthalene-1-sulfonic acid [5-(4-chloro-benzylidene)-4-oxo-4,5-dihydro-thiazol-2-yl] amide]	—	—	—	—	2.2	2.2
O=C1N=C(NS(=O)(=O)c2cccc3ccccc23)S/C1=C\c1ccc(C(=O)O)cc1 [Compound 5, Naphthalene-1-sulfonic acid [5-(4-carboxy-benzylidene)-4-oxo-4,5-dihydro-thiazol-2-yl] amide]	—	—	>1.0	—	9.0	
O=C1N=C(NS(=O)(=O)c2cccc3ccccc23)S/C1=C\c1cccc(O)c1 [Compound 6, Naphthalene-1-sulfonic acid [5-(3-hydroxy-benzylidene)-4-oxo-4,5-dihydro-thiazol-2-yl] amide]	—	—	—	—	2.5	
COc1ccc(/C=C2\SC(NS(=O)(=O)c3cccc4ccccc34)=NC2=O)cc1O [Compound 7, Naphthalene-1-sulfonic acid [5-(3-hydroxy-4-methoxy-benzylidene)-4-oxo-4,5-dihydro-thiazol-2-yl] amide]	—	—	—	—	—	
O=C1N=C(NS(=O)(=O)c2cccc3ccccc23)S/C1=C\c1ccc(O)c(Br)c1 [Compound 8, Naphthalene-1-sulfonic acid [5-(3-bromo-4-hydroxy-benzylidene)-4-oxo-4,5-dihydro-thiazol-2-yl] amide]	—	—	—	—	3.0	
COc1cccc(OC)c1/C=C1\SC(NS(=O)(=O)c2cccc3ccccc23)=NC1=O [Compound 9, Naphthalene-1-sulfonic acid [5-(2,6-dimethoxy-benzylidene)-4-oxo-4,5-dihydro-thiazol-2-yl] amide]	—	—	—	—	—	
O=C1N=C(NS(=O)(=O)c2cccc3ccccc23)S/C1=C\c1ccc(F)cc1Cl [Compound 10, Naphthalene-1-sulfonic acid [5-(2-chloro-4-fluoro-benzylidene)-4-oxo-4,5-dihydro-thiazol-2-yl] amide]	—	—	3.0	—	—	
O=C1N=C(NS(=O)(=O)c2cccc3ccccc23)S/C1=C\c1ccc(-c2ccccc2)cc1 [Compound 11, Naphthalene-1-sulfonic acid (5-biphenyl-4-yl-methylene-4-oxo-4,5-dihydro-thiazol-2-yl) amide]	—	—	—	—	—	
CC(=O)Nc1ccc(/C=C2\SC(NS(=O)(=O)c3cccc4ccccc34)=NC2=O)cc1 [Compound 12, Naphthalene-1-sulfonic acid [5-(4-acetylamino-benzylidene)-4-oxo-4,5-dihydro-thiazol-2-yl] amide]	—	—	—	—	—	
O=C1N=C(NS(=O)(=O)c2cccc3ccccc23)SC1Nc1ccccc1 (centres unmarked) [Compound 13, Naphthalene-1-sulfonic acid (4-oxo-5-phenylamino-4,5-dihydro-thiazol-2-yl) amide]	—	—	9.0	—	—	
O=C1N=C(NS(=O)(=O)c2cccc3ccccc23)SC1C(c1ccccc1)c1ccc(Br)cc1 (centres unmarked) [Compound 14, Naphthalene-1-sulfonic acid {5-[(4-bromo-phenyl)-phenyl-methyl]-4-oxo-4,5-dihydro-thiazol-2-yl} amide]	—	2.08	1.7		2.5	
O=C1N=C(NS(=O)(=O)c2cccc3ccccc23)S/C1=C\c1ccc(Br)cc1 [Con 1, Naphthalene-1-sulfonic acid [5-(4-bromo-benzylidene)-4-oxo-4,5-dihydro-thiazol-2-yl] amide, reference compound]	—	—	2.5	—	2.5	2.5
